# In patent US12053507B2, “Combination therapies for inhibiting sprout angiogenesis in the treatment of cancers” ([…] OF PHARMACY, LLC, priority 2010, dated 2024):
# T1: integrin αvβ3 (human), P06756
# T1 chain 1: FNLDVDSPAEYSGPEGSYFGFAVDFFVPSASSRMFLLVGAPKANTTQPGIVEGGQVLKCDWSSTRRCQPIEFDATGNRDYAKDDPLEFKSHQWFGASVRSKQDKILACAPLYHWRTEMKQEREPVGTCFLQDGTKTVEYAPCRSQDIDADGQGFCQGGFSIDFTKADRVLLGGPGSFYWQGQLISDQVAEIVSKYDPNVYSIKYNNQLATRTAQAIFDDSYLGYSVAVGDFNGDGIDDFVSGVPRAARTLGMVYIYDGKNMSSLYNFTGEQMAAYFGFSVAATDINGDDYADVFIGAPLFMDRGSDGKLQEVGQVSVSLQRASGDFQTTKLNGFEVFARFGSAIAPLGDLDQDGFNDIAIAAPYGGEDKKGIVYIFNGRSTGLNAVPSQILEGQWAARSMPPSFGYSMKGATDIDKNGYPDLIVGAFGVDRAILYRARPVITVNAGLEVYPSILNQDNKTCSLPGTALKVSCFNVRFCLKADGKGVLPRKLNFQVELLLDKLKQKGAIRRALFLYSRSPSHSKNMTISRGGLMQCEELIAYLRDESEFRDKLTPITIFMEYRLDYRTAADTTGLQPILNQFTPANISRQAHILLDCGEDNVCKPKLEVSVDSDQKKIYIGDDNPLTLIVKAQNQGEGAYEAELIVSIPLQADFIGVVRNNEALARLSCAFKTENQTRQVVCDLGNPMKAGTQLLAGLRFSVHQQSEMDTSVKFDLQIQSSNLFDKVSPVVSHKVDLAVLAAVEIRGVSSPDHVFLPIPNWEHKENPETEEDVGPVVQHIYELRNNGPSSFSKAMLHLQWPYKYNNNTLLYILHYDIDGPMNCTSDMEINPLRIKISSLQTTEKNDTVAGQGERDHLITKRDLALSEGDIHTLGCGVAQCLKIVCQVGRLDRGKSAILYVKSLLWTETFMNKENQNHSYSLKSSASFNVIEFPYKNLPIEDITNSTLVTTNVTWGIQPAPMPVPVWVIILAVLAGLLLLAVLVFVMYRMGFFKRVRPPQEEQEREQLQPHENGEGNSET
# T1 chain 2: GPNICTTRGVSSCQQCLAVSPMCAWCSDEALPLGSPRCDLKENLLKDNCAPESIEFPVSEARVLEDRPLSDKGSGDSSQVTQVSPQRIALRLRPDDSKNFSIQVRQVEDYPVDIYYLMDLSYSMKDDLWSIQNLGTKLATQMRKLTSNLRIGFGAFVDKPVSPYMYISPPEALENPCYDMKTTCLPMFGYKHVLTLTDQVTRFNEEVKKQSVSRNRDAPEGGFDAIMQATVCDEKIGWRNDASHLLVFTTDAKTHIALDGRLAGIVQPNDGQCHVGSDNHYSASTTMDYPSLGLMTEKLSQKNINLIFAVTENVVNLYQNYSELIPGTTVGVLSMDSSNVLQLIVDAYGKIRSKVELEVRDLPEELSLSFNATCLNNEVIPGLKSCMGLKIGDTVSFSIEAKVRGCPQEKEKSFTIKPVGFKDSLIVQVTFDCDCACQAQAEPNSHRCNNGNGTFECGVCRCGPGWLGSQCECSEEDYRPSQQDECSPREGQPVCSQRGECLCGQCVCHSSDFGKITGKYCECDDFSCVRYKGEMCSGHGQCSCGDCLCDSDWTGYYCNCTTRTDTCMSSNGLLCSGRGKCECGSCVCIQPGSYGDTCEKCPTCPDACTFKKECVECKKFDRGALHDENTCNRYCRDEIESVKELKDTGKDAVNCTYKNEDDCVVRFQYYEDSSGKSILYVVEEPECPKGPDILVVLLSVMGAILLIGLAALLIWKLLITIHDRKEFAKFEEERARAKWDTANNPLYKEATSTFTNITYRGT
# Biological target: T1, integrin αvβ3 (human), P06756
# Experiment: cell-based or functional assay
binder,measurement,value
QCESGPCCRNCKFLKEGTICKRARGDDMDDYCNGKTCDCPRNPHKGPAT (modifications not checked) [Echistatin (Disintegrin echistatin-alpha or Carinatin)],sprout angiogenesis of HDMEC in fibrin: concentration with little effect,0.1 µg/mL
